Compound potency records, mixed from different reports. Data source: NIAID ChemDB in PubChem.

Shared fields: whole-cell or culture tests; species: Mycobacterium fortuitum

Conditions beyond the fields shown may differ between rows.

compound | read-out | strain or isolate | method | conditions | result
Nc1nc(N)c2c(n1)NC(c1ccc(C(F)(F)F)cc1)CC(c1ccc3c(c1)OCO3)=N2 | MIC | MNT1073 | MTT / broth dilution / absorbance | clinical isolate | >32 µg/mL
N[C@@H]1CONC1=O | MIC |  |  |  | ≥1000 µg/mL
CCn1cc(C(=O)O)c(=O)c2cc(F)c(-n3cccc3)cc21 | MIC90 | 19 strains |  |  | 64 µg/mL
C[C@H]1c2cccc(O)c2C(O)=C2C(=O)[C@]3(O)C(O)=C(C(N)=O)C(=O)[C@@H](N(C)C)[C@@H]3[C@@H](O)[C@@H]21 | MIC90 | 10 strains |  |  | >16 µg/mL
CNCC1CCN(c2nc3c(cc2F)c(=O)c(C(=O)O)cn3C(C)(C)C)C1 | MIC | ATCC 6841 |  |  | 0.06 µg/mL
CC1COc2c(N3CCN(C)CC3)c(F)cc3c(=O)c(C(=O)O)cn1c23 | MIC90 |  |  |  | 0.4–1.2 µg/mL
CC1CN(c2nc3c(cc2F)c(=O)c(C(=O)O)cn3C(C)(C)C)CCN1 | MIC | ATCC 6841 |  |  | 0.03 µg/mL
CCN1C(=O)C(=O)N(CC)C1=S | MIC | CA10 |  |  | >100 µg/mL
C[C@@H]1CN(c2c(F)c(N)c3c(=O)c(C(=O)O)cn(C4CC4)c3c2F)C[C@H](C)N1 | MIC50 |  |  |  | 1.5 µg/mL
COc1c(N2CCNCC2)c(F)cc2c(=O)c(C(=O)O)cn(-c3ccc(F)cc3F)c12 | MIC | ATCC 6841 |  |  | 0.5 µg/mL
CC[C@H]1OC(=O)[C@H](C)[C@@H](O[C@H]2C[C@@](C)(OC)[C@@H](O)[C@H](C)O2)[C@H](C)[C@@H](O[C@@H]2O[C@H](C)C[C@H](N(C)C)[C@H]2O)[C@](C)(O)C[C@@H](C)CN(C)[C@H](C)[C@@H](O)[C@]1(C)O | MIC50 | 48 strains |  |  | >64 µg/mL
CC1CN(c2c(F)cc3c(=O)c(C(=O)O)cn(C4CC4)c3c2C(F)(F)F)CCN1 | MIC | ATCC 6841 |  |  | 1 µg/mL
CN[C@@H]1[C@H](O)[C@H](NC)[C@H]2O[C@@]3(O)C(=O)C[C@@H](C)O[C@H]3O[C@@H]2[C@H]1O | MBC90 | 31 isolates |  |  | >64 µg/mL
CN1CCN(c2cc3c(cc2F)c(=O)c(C(=O)O)cn3-c2ccc(F)cc2)CC1 | MIC90 | 19 strains |  |  | 4 µg/mL
CO[C@H]1/C=C/O[C@@]2(C)Oc3c(C)c(O)c4c(=O)c(c5oc6cc(N7CCN(CC(C)C)CC7)cc(=O)c6nc5c4c3=C2O)NC(=O)/C(C)=C\C=C\[C@H](C)[C@H](O)[C@@H](C)[C@@H](O)[C@@H](C)[C@H](OC(C)=O)[C@@H]1C | MIC50 | 20 strains |  |  | >100 µg/mL
NNC(=O)c1ccncc1 | MIC50 |  |  |  | 2 µg/mL
N/C(=N\N=C1CCCCCCCCCCC1)c1ccccn1 | MIC |  |  |  | >50 µg/mL
N[C@@H]1CONC1=O | MIC50 |  |  |  | >128 µg/mL
CC1CN(c2cc3c(cc2F)c(=O)c(C(=O)O)cn3-c2ccc(F)cc2F)CCN1 | MIC90 | 19 strains |  |  | 0.5 µg/mL
CCCN1CCN(c2cc(=O)c3nc4c(oc3c2)c2c(=O)c3c(O)c(C)c5c(c34)=C(O)[C@@](C)(O/C=C/[C@H](OC)[C@@H](C)[C@@H](OC(C)=O)[C@H](C)[C@H](O)[C@H](C)[C@@H](O)[C@@H](C)/C=C/C=C(/C)C(=O)N2)O5)CC1 | MIC50 | 20 strains |  |  | 25 µg/mL
Nc1nc(N)c2c(n1)NC(c1ccccc1)CC(c1ccc3c(c1)OCO3)=N2 | MIC | MNT1073 | MTT / broth dilution / absorbance | clinical isolate | >32 µg/mL
CO[C@@H]1[C@@H](O[C@@H]2O[C@H](C)[C@@H](O[C@H]3C[C@@](C)(O)[C@@H](OC(=O)CC(C)C)[C@H](C)O3)[C@H](N(C)C)[C@H]2O)[C@@H](CC=O)C[C@@H](C)[C@@H](O)/C=C/C=C/C[C@@H](C)OC(=O)C[C@H]1OC(C)=O | MIC50 | 48 strains |  |  | >64 µg/mL
COc1ccc(C2CC(c3ccc4c(c3)OCO4)=Nc3c(N)nc(SC)nc3N2)cc1 | MIC | MNT1073 | MTT / broth dilution / absorbance | clinical isolate | >32 µg/mL
CC(C)(C)c1ccc(C=O)cc1 | EC50 |  |  |  | >1000 µM
COc1cc(O)cc(/C=C/c2cc3ccccc3s2)c1 | MIC |  | broth dilution |  | 16 µg/mL
NC1CCN(c2nc3c(cc2F)c(=O)c(C(=O)O)cn3-c2ccc(F)cc2F)C1 | MIC50 | 25 isolates |  |  | 4 µg/mL
CO[C@@]1(NC(=O)Cc2cccs2)C(=O)N2C(C(=O)O)=C(COC(N)=O)CS[C@@H]21 | MIC50 | 13 strains |  |  | 12.5 µg/mL
Nc1nc(N)c2c(n1)NC(c1ccc(Cl)cc1)CC(c1ccc3c(c1)OCO3)=N2 | MIC | MNT1073 | MTT / broth dilution / absorbance | clinical isolate | >32 µg/mL
CCN1C(=O)C(=O)N(CC)C1=[Se] | MIC | CA10 |  |  | 6 µg/mL
CCn1cc(C(=O)O)c(=O)c2cc(F)c(N3CCNCC3)cc21 | MIC90 |  |  |  | 2 µg/mL
CNCC1CCN(c2c(F)cc3c(=O)c(C(=O)O)cn(C4CC4)c3c2Cl)C1 | MIC | ATCC 6841 |  |  | ≤0.03 µg/mL
CC[C@@H](CO)NCCN[C@@H](CC)CO | MIC50 |  |  |  | 32 µg/mL
Nc1nc(N)c2c(n1)NC(c1ccc3c(c1)OCO3)CC(c1ccccc1)=N2 | MIC | MNT1073 | MTT / broth dilution / absorbance | clinical isolate | >32 µg/mL
O=C(O)c1cn(-c2ccc(F)cc2)c2cc(N3CCNCC3)c(F)cc2c1=O | MIC90 | 19 strains |  |  | 2 µg/mL
Nc1nc(N)c2c(n1)NC(c1ccc(F)cc1)CC(c1ccc3c(c1)OCO3)=N2 | MIC | MNT1073 | MTT / broth dilution / absorbance | clinical isolate | >32 µg/mL
N/C(=N\N=C\c1cccc2ccccc12)c1ccccn1 | MIC |  |  |  | 12.5–25 µg/mL
Cn1ccn(C)c1=[Se] | MIC | CA10 |  |  | >100 µg/mL
CC(C)(C)n1cc(C(=O)O)c(=O)c2cc(F)c(N3CCC(N)C3)nc21 | MIC | ATCC 6841 |  |  | ≤0.03 µg/mL
CN[C@@H]1[C@@H](O)[C@@H](O[C@@H]2[C@@H](O)[C@H](O[C@H]3O[C@H](CN)CC[C@H]3N)[C@@H](N)C[C@H]2N)OC[C@]1(C)O | MBC | ATCC 6841 |  |  | 32 µg/mL
O=Cc1cccc2ccccc12 | EC50 |  |  |  | >1000 µM

ECn: concentration that inhibits the pathogen or its effect by n%. Blank or dashed fields: not listed here. Two numbers with a dash give a range or band. MIC50, MIC90 and the like: level of inhibition, or share of isolates inhibited.